Assay results from patent publication US20250346633A1, “MACOLACINS AND METHODS OF USE THEREOF” (priority 2021, published 2025).
In brackets after ≈: the same amount, converted by molar mass.

Test system: N. gonorrhoeae
Assay: MIC assay (microbial susceptibility)
Settings: intrinsically colistin resistant (chromosomally encoded PEtN transferase)

For CC[C@H](C)[C@@H]1NC(=O)[C@@H](CC(C)C)NC(=O)[C@H](CCN)NC(=O)[C@@H](NC(=O)[C@@H](CO)NC(=O)[C@@H](NC(=O)[C@H](CCN)NC(=O)c2ccc(-c3ccccc3)cc2)[C@@H](C)O)CCNC(=O)[C@H](CC(C)C)NC(=O)[C@H](CCN)NC(=O)[C@H](CCN)NC1=O [Biphenyl-macolacin], the MIC was 0.125 µg/mL (≈ 0.103 µM).
